A mixed list of measured activities; the numbers were collected in NIAID ChemDB.

Common to all: target-level tests; species: Hepatitis C virus; protein: Nonstructural protein 5B; read-out: IC50

ICn: concentration for n% inhibition.

compound | method | strain or isolate | value
CCOC(=O)c1cc(-c2ccc(C=C3SC(=S)N(CC(=O)O)C3=O)o2)ccc1Cl |  |  | ≤1 µM
CNC(=O)c1c(-c2ccc(F)cc2)oc2ccc(OCc3cccc(C(=O)OC)c3)cc12 |  |  | ≤0.5 µM
CCN(C1=C(O)CC(CCc2ccc(O)cc2)(C2CCCC2)OC1=O)c1ccccc1 |  |  | 1–10 µM
CNC(=O)c1c(-c2ccc(F)cc2)oc2cc(N3CCOCC3)c(OCc3ccc(C(=O)OC)cc3)cc12 |  |  | ≤0.5 µM
O=C(O)c1ccc(N2C(=O)C(=Cc3ccc(-c4ncc(C(F)(F)F)cc4Cl)o3)SC2=S)cc1 |  |  | ≤1 µM
O=C1CC(=O)OC(CCc2ccc(O)cc2)(C2CCCC2)C1 |  |  | 10–50 µM
O=C(O)CCN1C(=O)C(=Cc2ccc(-c3cc(C(F)(F)F)cc(C(F)(F)F)c3)o2)SC1=S |  |  | ≤1 µM
CC(C)(C#N)c1cccc(CCC2(C3CCCC3)CC(=O)CC(=O)O2)c1 |  |  | 1–10 µM
COc1c(-c2ccc3cc(NS(C)(=O)=O)ccc3c2)cc(-n2ccc(=O)[nH]c2=O)cc1C(C)(C)C | nucleotide incorporation | GT 3a#3 | 3.7 µM
CNC(=O)c1c(-c2ccc(F)cc2)oc2cc(N3CCOCC3)c(OCc3ccc(C(=O)O)cc3)cc12 |  |  | ≤0.5 µM
COc1ccc(CCC2(C3CCCC3)CC(O)=C(Sc3nc4ccccc4[nH]3)C(=O)O2)cc1Cl |  |  | <1 µM
CNC(=O)c1c(-c2ccc(F)cc2)oc2cc(-c3c(C)noc3C)c(OCc3cc(C)on3)cc12 |  |  | ≤0.5 µM
O=C(O)CCN1C(=O)C(=Cc2ccc(-c3cccs3)s2)SC1=S |  |  | ≤1 µM
CNC(=O)c1c(-c2ccc(F)cc2)oc2cc(NCCOC)c(OC(C)C)cc12 |  |  | ≤0.5 µM
O=C(O)CN1C(=O)C(=Cc2ccc(-c3cc(C(F)(F)F)ccc3Cl)o2)SC1=S |  |  | ≤1 µM

Blank or dashed fields: not listed here. Lines come from different laboratories, so protocols vary. Two numbers with a dash give a range or band.